{"source": "PubChem BioAssay AID504761, Drosophila RNAi Screening Center, 2011", "aim": "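Fly genes whose silencing reduces dengue virus type 2 infection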 (primary screen)", "cell system": "D.Mel-2 cells from Drosophila", "knock-down reagent": "long dsRNA against Drosophila genes", "conditions": "infection with dengue virus type 2; dose and infection time not stated", "measurement": "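Per well on two replicate plates, imaging gave the percent of cells positive for viral envelope protein, ranked by infection, and a nuclear count of cells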", "direction": "infection score: higher = more virus-infected cells", "active means": "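Low infection ranks in the two replicates (chance level up to 0.065) followed by a retest with a 1.5-fold or larger significant decrease, p below 0.05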", "meaning of the calls": "active = confirmed: knock-down lowers infection; inactive = not picked or not confirmed", "note": "The screen tested about 22,000 reagents; shown is a random part of those that have a named target and a result. Over the whole deposit, 116 (0.52%) were called active. 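Calls depend on retest data that are not deposited; infection was ranked per plate without normalising between plates; the unit of the infection score is not given.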 A number with no mark means an inactive call. Reagents against one gene are numbered here. Names joined by + are all predicted targets of the reagent. Further read-outs or replicates are left out here. Not given: the amount of reagent, the time to read-out."}
{"gene": "Regnase-1 (GeneID 42394)", "reagent": 1, "infection score, replicate 1": 14.3}
{"gene": "stw (GeneID 35494)", "reagent": 1, "infection score, replicate 1": 8.41}
{"gene": "stw (GeneID 35494)", "reagent": 2, "infection score, replicate 1": 3.02}
{"gene": "stw (GeneID 35494)", "reagent": 3, "infection score, replicate 1": 2.55}
{"gene": "stw (GeneID 35494)", "reagent": 4, "infection score, replicate 1": 15.5}
{"gene": "Gcat (GeneID 39333)", "reagent": 1, "infection score, replicate 1": 0.96}
{"gene": "Gcat (GeneID 39333)", "reagent": 2, "infection score, replicate 1": 12.6}

Next part (2 carried over from the part before).
{"gene": "Gcat (GeneID 39333)", "reagent": 1, "infection score, replicate 1": 0.96}
{"gene": "Gcat (GeneID 39333)", "reagent": 2, "infection score, replicate 1": 12.6}
{"gene": "Ak3 (GeneID 41318)", "reagent": 1, "infection score, replicate 1": 3.31}
{"gene": "Ak3 (GeneID 41318)", "reagent": 2, "infection score, replicate 1": 6.48}
{"gene": "CG12316 (GeneID 39650)", "reagent": 1, "infection score, replicate 1": 18.5}
{"gene": "CG12316 (GeneID 39650)", "reagent": 2, "infection score, replicate 1": 13.3}
{"gene": "olf186-M (GeneID 37039)", "reagent": 1, "infection score, replicate 1": 6.27}
{"gene": "stck (GeneID 40999)", "reagent": 1, "infection score, replicate 1": 7.09}
{"gene": "fbl + CG33969", "reagent": 1, "infection score, replicate 1": 12.2}
